Experimental data taken from paper PMC10870819.

Biological target: SARS-CoV RBD (residues 306-527) (SARS-CoV) (UniProt P59594)
Test: SPR

Substance | Kd [nM]
hare ACE2 (residues 1-615) | 86.5
rabbit ACE2 (residues 1-615), 293F-expressed (from UniProt G1TEF4) | 107
